Test results: US20080234184A1 (CENTRE NATIONAL DE LA RECHERCHE SCIENTIFIQUE, published 2008)

Columns and labels:
[1] = molecular target: the molecule itself; test: SDS-PAGE, anti-GST Western blot (FIG. 2B); homo-oligomers
[2] = molecular target: the molecule itself; test: SDS-PAGE, Western blot (FIG. 3A); homo-oligomers, weaker than the non-mutated form

B1: GST-DP-TME1 chimera (other)
chain: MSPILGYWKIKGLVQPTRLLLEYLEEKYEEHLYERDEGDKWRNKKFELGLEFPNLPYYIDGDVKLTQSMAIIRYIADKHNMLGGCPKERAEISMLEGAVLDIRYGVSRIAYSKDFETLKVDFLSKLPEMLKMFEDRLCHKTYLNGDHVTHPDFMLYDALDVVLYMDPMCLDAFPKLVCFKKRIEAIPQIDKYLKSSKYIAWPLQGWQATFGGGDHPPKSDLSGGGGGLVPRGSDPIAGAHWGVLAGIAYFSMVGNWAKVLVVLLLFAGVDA
notes: Expressed in E. coli BL21 Gold(DE3)pLysS from pGEXKT-DP-TME1; analysed in whole lysate by SDS-PAGE and Western blot; The oligomeric state varies (monomer, dimer, trimer); also called G-DP-TME1
binding result [1]: binds

B2: GST-DP-TME2 chimera (other)
chain: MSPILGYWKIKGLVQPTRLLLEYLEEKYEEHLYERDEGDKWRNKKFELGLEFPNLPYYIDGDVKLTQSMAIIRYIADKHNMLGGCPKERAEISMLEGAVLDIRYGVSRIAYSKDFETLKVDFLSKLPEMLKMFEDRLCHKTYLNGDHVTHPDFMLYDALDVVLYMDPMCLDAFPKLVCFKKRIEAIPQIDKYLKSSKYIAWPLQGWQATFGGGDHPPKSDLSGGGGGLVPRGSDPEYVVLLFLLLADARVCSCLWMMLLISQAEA
notes: also called G-DP-TME2
binding result [1]: binds

B3: GST-DP-TME2-C731/C733A chimera (other)
chain: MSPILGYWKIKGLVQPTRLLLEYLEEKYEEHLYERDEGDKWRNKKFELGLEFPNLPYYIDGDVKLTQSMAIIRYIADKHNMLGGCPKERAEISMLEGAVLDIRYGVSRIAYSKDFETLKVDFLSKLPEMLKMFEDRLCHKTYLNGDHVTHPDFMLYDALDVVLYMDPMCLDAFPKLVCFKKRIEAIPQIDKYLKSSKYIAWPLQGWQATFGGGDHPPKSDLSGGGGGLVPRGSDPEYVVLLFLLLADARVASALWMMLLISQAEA
notes: Double mutant of GST-DP-TME2; also called GST-DP-TME2-C731/733A; GST-TME2-C731/733A
binding result [2]: binds
